Data published in EP1016405A2, “Arylating medicaments” (Radopath Pharmaceuticals International Limited, priority 1993, dated 1994).
pIC50: −log10 of the molar value. “And” between values parts separate entries of the source, which are not always exact repeats. Identical values can stand only once. Like-named read-outs stand apart in the source and are kept apart here. Only a part of the results on these compounds is given; other tests are left out.

Legend:
HIV-1RF = assay: Acute Infection Assay, HIV core antigen ELISA in C8166 cells; assay type: cell-based, human immunodeficiency virus
HIV-1IIIB = assay: Acute infection assay against HIV-1IIIB; assay type: cell-based, human immunodeficiency virus
[1] = tested on: Chronically infected cells (H9rf); assay: Chronically Infected Cell Assay, HIV-1 antigen ELISA; assay type: cell-based; conditions: Table 11.2, Against chronically infected cells
uninfected cells = assay: Toxicity Assay, 14C protein hydrolysate uptake, 72 hours; conditions: read-out: CC50 (Toxicity), Table 11.2, unit inferred
[2] = Table 11.2, Against HIV-1RF, single assays
[3] = read-out: IC50 (Antiviral), Table 11.2, Against HIV-1RF, single assays, no unit printed (tested 200µM to 0.2µM)
[4] = section Against HIV-1RF, single assays

## O=[N+]([O-])c1cc([N+](=O)[O-])c(Cl)c([N+](=O)[O-])c1
HIV-1RF; Table 11.2, Against HIV-1RF, Average
  SI (Selectivity Index): 12
HIV-1RF; [2]
  SI (Selectivity Index): 10
HIV-1RF; read-out: IC50 (Antiviral), Table 11.2, Against HIV-1RF, Average, unit inferred
  pIC50: 6.30
HIV-1RF; [3]
  pIC50: 6.22 and 6.40
HIV-1IIIB; Table 11.2, Average
  SI (Selectivity Index): 9
HIV-1IIIB; Table 11.2, single assays
  SI (Selectivity Index): 7 and 11.6
HIV-1IIIB; read-out: IC50 (Antiviral), Table 11.2, Average, unit inferred
  pIC50: 6.10
HIV-1IIIB; read-out: IC50 (Antiviral), Table 11.2, single assays, unit inferred
  pIC50: 6.00 and 6.22
[1]; Average
  SI (Selectivity Index): 6
[1]; single assays
  SI (Selectivity Index): 8 and 6
[1]; read-out: IC50 (Antiviral), Average, unit inferred
  pIC50: 5.82
Uninfected cells; section Against HIV-1IIIB, Average
  CC50: 7000 nM
Uninfected cells; section Against HIV-1IIIB, single assays
  CC50: 7000 nM
Uninfected cells; section Against HIV-1RF, Average
  CC50: 6000 nM
Uninfected cells; [4]
  CC50: 7000 nM and 5000 nM

## O=[N+]([O-])c1cc([N+](=O)[O-])c(O)c([N+](=O)[O-])c1
HIV-1RF; Table 10, 50% reduction in HIV core antigen levels
  pIC50: > 6.70
HIV-1RF; Table 10, therapeutic index, CD50 divided by IC50
  TI: >475
HIV-1RF; [2]
  SI (Selectivity Index): 2
HIV-1RF; [3]
  pIC50: 4.42
Uninfected cells; [4]
  CC50: 67000 nM
